Results of unrelated studies side by side (data: NIAID ChemDB).

Shared fields: tests on isolated targets

Blank or dashed fields: not listed here. Percent inhibition refers to the dose given; in toxicity tests it is the harm to the cells. Conditions beyond the fields shown may differ between rows. ICn: concentration for n% inhibition.

structure	strain or isolate	tested at	protein	organism	measure	result
Cc1cc(C)nc(-c2ccc(C=C3SC(=S)N(c4ccc(C(=O)O)cc4)C3=O)o2)c1			NS5 polymerase	Bovine viral diarrhea virus	IC50	≤1 µM
COc1cc(NCc2cccc3nc(N)nc(N)c23)cc(OC)c1OC	TYPE 2		Dihydrofolate reductase	Cryptosporidium parvum	IC50	>10 µM
COc1ccc(CNc2nnc(NC(=O)c3c(Cl)cccc3Cl)s2)cc1OC			Polymerase	Human cytomegalovirus	IC50	>25 µM
Cc1cc(C)cc(-c2ccc(C=C3SC(=S)N(CCC(=O)O)C3=O)o2)c1			NS5 polymerase	Bovine viral diarrhea virus	IC50	≤1 µM
COc1ccc(CC2CCc3nc(N)nc(N)c3C2)cc1OC	TYPE 1		Dihydrofolate reductase	Cryptosporidium parvum	IC50	0.4 µM
COc1ccc(-c2cncc(NCCc3cccnc3)n2)cc1			UL97 kinase	Cytomegalovirus	IC50	<1 µM
O=C(Nc1nnc(NCCCN2CCCC2=O)s1)c1ccc([N+](=O)[O-])o1			Polymerase	Human cytomegalovirus	IC50	>25 µM
O=C1NC(=S)S/C1=C/c1ccc(-c2cc(C(F)(F)F)ccc2Cl)o1			NS5 polymerase	Bovine viral diarrhea virus	IC50	≤1 µM
Nc1nc(N)c2c(n1)Cc1c(Cl)cccc1-2	TYPE 2		Dihydrofolate reductase	Cryptosporidium parvum	IC50	>10 µM
COc1ccccc1C(=O)Nc1nnc(NC2CCCCCC2)s1			Polymerase	Human cytomegalovirus	IC50	>25 µM
NC(=O)c1ccc(-c2cncc(N3CCN(c4ccccc4)CC3)n2)cc1			UL97 kinase	Cytomegalovirus	IC50	<1 µM
O=C(/C=C/c1ccccc1)Nc1nnc(NC2CCN(Cc3ccccc3)CC2)s1			Polymerase	Human cytomegalovirus	IC50	>25 µM
COc1ccc(N2CCN(c3cncc(-c4cccc(C)c4)n3)CC2)cc1OC			UL97 kinase	Cytomegalovirus	IC50	<10 µM
COc1ccc(OC)c(CCc2cc3c(N)nc(N)nc3s2)c1	TYPE 2		Dihydrofolate reductase	Cryptosporidium parvum	IC50	>10 µM
Cc1ccccc1-c1cncc(N2CCN(c3ccccc3)CC2)n1			UL97 kinase	Cytomegalovirus	IC50	<100 µM
CCc1ccccc1-c1nc2nc(N)nc(N)c2nc1-c1ccccc1CC	TYPE 2		Dihydrofolate reductase	Cryptosporidium parvum	IC50	>10 µM
Cc1ccc(C(=O)Nc2nnc(NCCCNC3CCCCC3)s2)cc1			Polymerase	Human cytomegalovirus	IC50	<25 µM
COc1cccc2c1CCc1nc(N)nc(N)c1-2	TYPE 1		Dihydrofolate reductase	Cryptosporidium parvum	IC50	0.72 µM
CCCCc1ccc(-c2ccc(C=C3SC(=S)N(c4ccc(C(=O)O)cc4)C3=O)o2)cc1			NS5 polymerase	Bovine viral diarrhea virus	IC50	≤1 µM
Cc1ccc(-c2cncc(N3CCN(c4ccncc4)CC3)n2)cc1		1 µM	UL97 kinase	Cytomegalovirus	inhibition	<50%
Nc1nc(N)c2nc(Cc3cccc(C(F)(F)F)c3)c(Cc3cccc(C(F)(F)F)c3)nc2n1	TYPE 1		Dihydrofolate reductase	Cryptosporidium parvum	IC50	>10 µM

Repeating the final 2 entries:

structure	strain or isolate	tested at	protein	organism	measure	result
Cc1ccc(-c2cncc(N3CCN(c4ccncc4)CC3)n2)cc1		1 µM	UL97 kinase	Cytomegalovirus	inhibition	<50%
Nc1nc(N)c2nc(Cc3cccc(C(F)(F)F)c3)c(Cc3cccc(C(F)(F)F)c3)nc2n1	TYPE 1		Dihydrofolate reductase	Cryptosporidium parvum	IC50	>10 µM